Consider one substance from publication PMC5539350.

The test system of this data set is O=c1cc[nH]c(=O)[nH]1. The data set is described as follows: cells, lysate or membranes.

Where “and” joins values, the source holds several entries; their conditions need not be identical. Identical values can stand only once.

Take (Escherichia coli O157:H7): the Km (in general, the concentration of substrate that gives half-maximal velocity) is 0.57 ± 0.11 µM and 0.56 ± 0.10 µM.
